According to patent US9988424 (DUKE UNIVERSITY, dated 2018):

Legend:
[1] = molecular target: Env of SHIV-BaL (SHIV); assay: cell-based or functional assay
[2] = molecular target: Env of SHIV SF162P3 (SHIV); assay: cell-based or functional assay
[3] = molecular target: T1, C.1086 gp140; assay: ELISA, OD405 at 10 ug/ml mAb
T1 construct: also called C.1086gp140C
T1 chain: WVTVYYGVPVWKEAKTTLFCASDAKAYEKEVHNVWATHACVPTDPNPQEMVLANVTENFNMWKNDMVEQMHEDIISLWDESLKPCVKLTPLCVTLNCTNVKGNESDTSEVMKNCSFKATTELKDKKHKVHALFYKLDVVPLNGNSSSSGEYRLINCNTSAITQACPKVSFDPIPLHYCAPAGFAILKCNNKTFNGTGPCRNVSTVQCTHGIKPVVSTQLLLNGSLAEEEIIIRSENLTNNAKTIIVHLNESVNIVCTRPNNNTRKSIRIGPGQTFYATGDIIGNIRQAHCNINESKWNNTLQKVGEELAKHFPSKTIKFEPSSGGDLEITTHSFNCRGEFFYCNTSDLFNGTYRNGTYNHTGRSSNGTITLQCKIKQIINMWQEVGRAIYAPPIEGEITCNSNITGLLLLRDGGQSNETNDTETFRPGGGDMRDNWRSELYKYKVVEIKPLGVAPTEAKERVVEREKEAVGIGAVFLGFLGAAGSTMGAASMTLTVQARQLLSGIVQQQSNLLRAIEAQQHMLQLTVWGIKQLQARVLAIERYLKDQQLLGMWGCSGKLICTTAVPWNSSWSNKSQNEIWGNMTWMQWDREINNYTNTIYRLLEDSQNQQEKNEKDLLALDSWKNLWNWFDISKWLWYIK

[4] = molecular target: T2, AE.con gp140CF; assay: ELISA, OD405 at 10 ug/ml mAb
T2 construct: also called AE.con.env03 gp140CF
T2 chain: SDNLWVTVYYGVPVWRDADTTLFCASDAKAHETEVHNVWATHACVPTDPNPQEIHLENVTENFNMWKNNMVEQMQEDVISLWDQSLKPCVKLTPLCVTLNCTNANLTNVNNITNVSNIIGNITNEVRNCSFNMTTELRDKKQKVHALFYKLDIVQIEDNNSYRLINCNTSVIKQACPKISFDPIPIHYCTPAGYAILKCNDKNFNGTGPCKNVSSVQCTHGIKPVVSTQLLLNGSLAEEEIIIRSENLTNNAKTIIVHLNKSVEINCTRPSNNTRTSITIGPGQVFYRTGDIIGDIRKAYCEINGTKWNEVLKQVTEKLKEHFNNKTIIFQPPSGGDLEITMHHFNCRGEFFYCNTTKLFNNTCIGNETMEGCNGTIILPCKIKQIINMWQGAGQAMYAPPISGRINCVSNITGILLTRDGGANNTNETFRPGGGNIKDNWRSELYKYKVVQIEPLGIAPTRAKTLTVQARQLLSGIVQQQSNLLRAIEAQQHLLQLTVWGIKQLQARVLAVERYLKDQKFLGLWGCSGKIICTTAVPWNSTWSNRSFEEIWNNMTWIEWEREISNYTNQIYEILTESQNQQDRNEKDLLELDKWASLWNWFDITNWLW

[5] = molecular target: T3, B. 684-6 gp140C; assay: ELISA, OD405 at 10 ug/ml mAb
T3 chain: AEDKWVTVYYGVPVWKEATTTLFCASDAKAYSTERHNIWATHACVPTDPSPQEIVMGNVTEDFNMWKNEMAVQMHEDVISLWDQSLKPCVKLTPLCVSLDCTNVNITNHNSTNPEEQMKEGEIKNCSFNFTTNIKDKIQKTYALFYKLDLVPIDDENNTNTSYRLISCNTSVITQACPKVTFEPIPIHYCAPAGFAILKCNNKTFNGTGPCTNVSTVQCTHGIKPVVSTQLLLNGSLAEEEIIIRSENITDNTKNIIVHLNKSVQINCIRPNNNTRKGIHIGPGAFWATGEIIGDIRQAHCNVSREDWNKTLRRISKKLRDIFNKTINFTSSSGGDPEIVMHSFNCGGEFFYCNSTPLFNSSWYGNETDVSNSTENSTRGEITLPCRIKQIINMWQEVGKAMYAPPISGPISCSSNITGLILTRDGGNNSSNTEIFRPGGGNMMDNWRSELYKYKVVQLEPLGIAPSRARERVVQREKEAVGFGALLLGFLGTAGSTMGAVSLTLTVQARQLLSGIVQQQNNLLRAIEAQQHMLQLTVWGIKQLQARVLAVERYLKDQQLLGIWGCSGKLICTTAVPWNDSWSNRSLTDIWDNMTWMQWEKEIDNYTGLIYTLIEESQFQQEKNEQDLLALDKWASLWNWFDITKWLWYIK

[6] = molecular target: T4, D.9009SA V1V2 Tags; assay: ELISA, OD405 at 10 ug/ml mAb
T4 Env construct: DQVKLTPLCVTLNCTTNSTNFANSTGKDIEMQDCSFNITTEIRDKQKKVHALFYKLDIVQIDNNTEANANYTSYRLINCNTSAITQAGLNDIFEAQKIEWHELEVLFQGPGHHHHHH

[7] = molecular target: T5, B.Case A2 V1/V2 Tags; assay: ELISA, OD405 at 10 ug/ml mAb
T5 Env construct: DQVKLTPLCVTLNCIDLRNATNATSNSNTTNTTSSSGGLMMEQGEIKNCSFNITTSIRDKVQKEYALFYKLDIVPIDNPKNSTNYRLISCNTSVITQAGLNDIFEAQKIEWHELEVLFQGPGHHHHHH

[8] = molecular target: J08 A.92RW020V1V2 (HIV-1)

B1: CH58 (antibody, V domains shown)
VH: EVQLVQSGAEVKKPGESLKISCKGSGYRFTSYWIVWVRQMPGKGLEWMGIIYPGDFDTKYSPSFQGQVTISADKSISTAYLQWSSLKASDTAMYYCARLGGRYYHDSSGYYYLDYWGQGTLVTVSS
VL: NFMLTQPHSVSESPGKTVTISCTRSSGSVASDYVQWYQQRPGSAPTTVVYEDNQRPSGVPDRFSGSIDSSSNSASLTISGLKTEDEADYYCQSYDNSSWVFGGGTKLTVL
Question: Which “EC50, neutralization of SHIV B.BaL (tier 2)” value [1] does the source give for B1 here?
Answer: The value was > 50 µg/mL.

Question: What about the “EC50, neutralization of SHIV B.SF162P3 (tier 2)” value [2] of the same binder?
Answer: Its value is > 50 µg/mL.

Question: Does B1 bind [3]?
Answer: Result: binds

Question: Does B1 bind [4]?
Answer: Result: binds

Question: Does B1 bind [5]?
Answer: Result: binds

Question: Does B1 bind [6]?
Answer: Result: binds

Question: Does B1 bind [7]?
Answer: Result: binds

Question: And the Kd [8]?
Answer: Its Kd is 175 nM.
